A mixed list of measured activities; the numbers were collected in NIAID ChemDB.

Common to all: growth or infection tests; agent: Candida albicans; endpoint: MIC

Neighbouring rows are from separate reports. An empty or dashed field is not shown.

structure,strain or isolate,method,setting,result
Cc1ccc(C(C)C)c(O)c1,ATCC 10231,-,-,0.16 µg/mL
CC(C)(C)c1ccc(COC(Cn2ccnc2)c2ccc(Cl)cc2Cl)cc1,CDCB385,-,-,>128 µg/mL
CCCCCCCCOc1ccc(N2CCN(c3ccc(C(=O)N[C@H]4CCCNC(=O)[C@@H]5C[C@H](N)CN5C(=O)[C@H](CCN)NC(=O)[C@H](CCc5ccc(O)cc5)NC(=O)[C@@H]5CCCN5C(=O)[C@H]([C@@H](C)O)NC4=O)cc3)CC2)cc1,ATCC 38247,-,-,0.39 µg/mL
Clc1ccc(C(Cn2ccnc2)OCc2ccc(-c3ccccc3)cc2)c(Cl)c1,5M,-,-,128 µg/mL
Nc1ncnc2c1ncn2[C@@H]1O[C@H](C(=O)O)[C@@H](NC(=O)C(N)Cc2ccccc2Cl)[C@H]1O,FP633,-,-,12.5 µg/mL
Cc1cc(Br)c2ncn([C@H](C)[C@](O)(Cn3cncn3)c3ccc(F)cc3F)c(=O)c2c1,406 strains,-,-,0.07 µg/mL
CS(=O)(=O)C[C@@H](N)C(=O)N[C@H]1[C@@H](O)[C@H](n2cnc3c(N)ncnc32)O[C@@H]1C(=O)O,FP633,-,-,>100 µg/mL
CCCCCOc1ccc(-c2ccc(-c3ccc(C(=O)N[C@H]4CCCNC(=O)[C@@H]5C[C@H](N)CN5C(=O)[C@H]([C@@H](C)O)NC(=O)[C@H](CCc5ccccc5)NC(=O)[C@@H]5C[C@@H](O)CN5C(=O)[C@H]([C@@H](C)O)NC4=O)cc3)cc2)cc1,ATCC 62376,-,-,1.56 µg/mL
Cc1c(O)cccc1C(=O)N[C@@H](CSc1ccccc1)[C@H](O)CN1C[C@H]2CCCC[C@H]2C[C@H]1C(=O)NC(C)(C)C,I46A,-,-,64 µg/mL
Nc1[nH]c(=O)ncc1F,15 isolates,broth dilution,pH 6,0.125 µg/mL
Cc1ccc(C(Cn2ccnc2)OCc2cccc3ccccc23)cc1,CA6,-,-,>128 µg/mL
C[C@@H](c1ncncc1F)[C@](O)(Cn1cncn1)c1ccc(F)cc1F,15 isolates,broth dilution,pH 6,0.03 µg/mL
c1ccc(-c2ccc(COC(Cn3ccnc3)c3ccccc3)cc2)cc1,Y0109,-,-,>128 µg/mL
C[C@H](n1cnc2cc(Cl)ccc2c1=O)[C@](O)(Cn1cncn1)c1ccc(F)cc1F,60 strains,-,-,1.25 µg/mL
CCOc1cc2c(cc1F)n([O-])c(C)c(Cl)[n+]2=O,Clinical isolate 1,-,-,62.5 µg/mL
COC(=O)[C@H]1[C@@H]2C[C@@H](O[C@@H]3O[C@H](C)[C@@H](O)[C@H](N)[C@@H]3O)/C=C/C=C/C=C/C=C/C=C/C=C/C=C/[C@H](C)[C@@H](O)[C@H](C)[C@H](C)OC(=O)C[C@H](O)C[C@H](O)[C@@H](O)CC[C@H](O)C[C@H](O)C[C@](O)(C[C@@H]1O)O2,10 isolates,broth dilution,pH 7,0.5 µg/mL
C[C@H]1[C@H](O)[C@@H](C)/C=C/C=C/C=C/C=C/C=C/C=C/C=C/[C@H](O[C@@H]2O[C@H](C)[C@@H](O)[C@H](N)[C@@H]2O)C[C@@H]2O[C@](O)(C[C@@H](O)C[C@@H](O)CC[C@H](O)[C@@H](O)C[C@@H](O)CC(=O)O[C@H]1C)C[C@H](O)[C@H]2C(=O)O,ATCC64546,-,-,0.25 µg/mL
COc1ccc(C[C@H](N)C(=O)N[C@H]2[C@@H](O)[C@H](n3cnc4c(N)ncnc43)O[C@@H]2C(=O)NN)cc1,FP633,-,-,6.2 µg/mL
C[C@@H](c1nc(-c2ccc(C#N)cc2)cs1)[C@](O)(Cn1cncn1)c1ccc(F)cc1F,76 strains,-,-,0.07 µg/mL
Clc1ccc(C(Cn2ccnc2)OC/C=C/c2ccccc2)cc1,Y0109,-,-,>128 µg/mL
Nc1ncnc2c1ncn2[C@@H]1O[C@H](C(=O)O)[C@@H](NC(=O)[C@H](N)CSCC(=O)O)[C@H]1O,FP633,-,-,>100 µg/mL
CC(/C=C/C=C(\C)C(O)C(C)C(=O)O[C@H]1C[C@@H](C)C=C2C=C[C@]3(C)O[C@@H](O)CC(=O)[C@]3(C)[C@H]21)=C\C=C\C(=O)O,ATCC 62376,-,-,0.78 µg/mL
COc1cc2ncn([C@H](C)[C@](O)(Cn3cncn3)c3ccc(F)cc3F)c(=O)c2cc1OC,406 strains,-,-,0.63 µg/mL
COc1cc(O)c2c(c1)C(=O)c1c(cc3c(c1O)-c1c(cc(C)c(C(=O)NC(CO)C(=O)O)c1O)[C@H](OC1OC(C)C(O)C(OC4OCC(O)C(O)C4O)C1O)C3O)C2=O,KB 83/005 (azole-resistant),-,-,4 µg/mL
CC(C)N=C(N)c1ccc2nc(-c3ccc4c(c3)Cc3cc(-c5nc6ccc(C(N)=NC(C)C)cc6[nH]5)ccc3-4)[nH]c2c1,Isolate 17 (strain 12-99),-,-,1.56 µg/mL
CCCCCOc1ccc(-c2ccc(-c3ccc(C(=O)N[C@H]4CCCNC(=O)[C@@H]5C[C@H](NC(=O)CCC(=O)O)CN5C(=O)[C@H]([C@@H](C)O)NC(=O)[C@H](CCc5ccc(O)cc5)NC(=O)[C@@H]5C[C@@H](O)CN5C(=O)[C@H]([C@@H](C)O)NC4=O)cc3)cc2)cc1,ATCC 62376,-,-,0.78 µg/mL
C[C@H](n1cnc2cc3ccccc3cc2c1=O)[C@](O)(Cn1cncn1)c1ccc(F)cc1F,60 strains,-,-,≤0.03 µg/mL
C[C@@H](c1ncncc1F)[C@](O)(Cn1cncn1)c1ccc(F)cc1F,Isolate 2-76,-,-,0.06 µg/mL
CCC(C)CC(C)CCCCCCCCC(=O)N[C@H]1C[C@@H](O)[C@H](NCCN)NC(=O)[C@@H]2[C@@H](O)CCN2C(=O)[C@H]([C@H](O)CCN)NC(=O)[C@H]([C@H](O)[C@@H](O)c2ccc(O)cc2)NC(=O)[C@@H]2C[C@@H](O)CN2C(=O)[C@H]([C@@H](C)O)NC1=O,15 isolates,broth dilution,pH 5,0.06 µg/mL
C[C@@H](n1cnc2cc(OCC(F)(F)C(F)F)ccc2c1=O)[C@](O)(Cn1cncn1)c1ccc(F)cc1F,76 strains,-,-,0.07 µg/mL
CCCCCCCCCCCCCCCCCC(=O)NC1CC(O)C(O)NC(=O)C2C(O)C(C)CN2C(=O)C(C(C)O)NC(=O)C(C(O)C(O)c2ccc(O)cc2)NC(=O)C2CC(O)CN2C(=O)C(C(C)O)NC1=O,MY1028,-,-,1 µg/mL
O=C(Nc1nc2ccc(NC(=O)[C@@H]3CCC[C@H](NCc4ccc5ccccc5c4)C3)cc2s1)C1CCCC1,ATCC 24433,-,-,0.78 µM
CCCCCCCCCCCCCCC(=O)N[C@H]1CCCNC(=O)[C@@H]2C[C@H](N)CN2C(=O)[C@H]([C@@H](C)O)NC(=O)[C@H](CCc2ccc(O)cc2)NC(=O)[C@@H]2C[C@@H](O)CN2C(=O)[C@H]([C@@H](C)O)NC1=O,ATCC 38247,-,-,0.78 µg/mL
Cc1c(Cl)[n+](=O)c2cc(Cl)ccc2n1[O-],Clinical isolate 21,-,-,7.8 µg/mL
CCCCCOc1ccc(-c2ccc(-c3ccc(C(=O)N[C@H]4CCCNC(=O)[C@@H]5[C@H](N)CCN5C(=O)[C@H]([C@@H](C)O)NC(=O)[C@H](CCc5ccc(O)cc5)NC(=O)[C@@H]5C[C@@H](O)CN5C(=O)[C@H]([C@@H](C)O)NC4=O)cc3)cc2)cc1,ATCC 62376,-,-,0.2 µg/mL
Cc1c(S(=O)(=O)c2ccccc2)[n+](=O)c2cc(Cl)ccc2n1[O-],Clinical isolate 11,-,-,31.25 µg/mL
CCCCCCCCOc1ccc(C(=O)NC2C[C@@H](O)[C@@H](O)NC(=O)C3[C@@H](O)[C@@H](C)CN3C(=O)C(C(C)O)NC(=O)C([C@H](O)[C@@H](O)c3ccc(O)cc3)NC(=O)C3C[C@@H](O)CN3C(=O)C(C(C)O)NC2=O)cc1,MY1055,-,-,0.5 µg/mL
CCCCCCCOc1ccc(N2CCN(c3ccc(C(=O)N[C@H]4CCCNC(=O)[C@@H]5C[C@H](N)CN5C(=O)[C@H]([C@@H](C)O)NC(=O)[C@H](CCc5ccc(C)cc5)NC(=O)[C@@H]5CCCN5C(=O)[C@H]([C@@H](C)O)NC4=O)cc3)CC2)cc1,ATCC 62376,-,-,3.12 µg/mL
CCC(C)n1ncn(-c2ccc(N3CCN(c4ccc(OC[C@H]5CO[C@](Cn6cncn6)(c6ccc(Cl)cc6Cl)O5)cc4)CC3)cc2)c1=O,KB,-,-,>4 µg/mL
Cc1c(Sc2ccccc2)[n+](=O)c2cc(C(F)(F)F)ccc2n1[O-],Clinical isolate 13,-,-,15.6 µg/mL
CC(C)(C)c1ccc(COC(Cn2ccnc2)c2ccc(Cl)cc2)cc1,3M,-,-,128 µg/mL
Cc1[nH]cnc1CSC[C@@H](N)C(=O)N[C@H]1[C@@H](O)[C@H](n2cnc3c(N)ncnc32)O[C@@H]1C(=O)O,FP633,-,-,3.1 µg/mL
Cc1ccc(C(Cn2ccnc2)OCc2ccc(C(C)(C)C)cc2)cc1,CDCB385,-,-,128 µg/mL
CCCCCCCCOc1ccc(-c2ccc(C(=O)N[C@H]3CCCNC(=O)[C@@H]4C[C@H](N)CN4C(=O)[C@H]([C@@H](C)O)NC(=O)[C@H](CCc4ccc(O)cc4)NC(=O)[C@@H]4C[C@@H](O)CN4C(=O)[C@H]([C@@H](C)O)NC3=O)cc2)cc1,ATCC 38247,-,-,0.39 µg/mL
Nc1ncnc2c1ncn2[C@@H]1O[C@H](C(=O)O)[C@@H](NC(=O)C(N)CCSc2ccccc2)[C@H]1O,FP633,-,-,6.2 µg/mL

A second listing of 3 rows from above:

Cc1ccc(C(Cn2ccnc2)OCc2ccc(C(C)(C)C)cc2)cc1 ; strain or isolate: CDCB385 ; result: 128 µg/mL
C[C@@H](n1cnc2cc(OCC(F)(F)C(F)F)ccc2c1=O)[C@](O)(Cn1cncn1)c1ccc(F)cc1F ; strain or isolate: 76 strains ; result: 0.07 µg/mL
Cc1c(Sc2ccccc2)[n+](=O)c2cc(C(F)(F)F)ccc2n1[O-] ; strain or isolate: Clinical isolate 13 ; result: 15.6 µg/mL